We go through ten molecules from the supplement of paper PMC9931576.

Common to all, as to assay: pseudovirus neutralization IC50; higher = weaker neutralization
Experiment [1] addresses SARS-CoV-2 Omicron BA.1 spike pseudovirus. How it is done: (§1)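 Single-round VSV luciferase pseudovirus mixed with antibody dilutions for 1 h and put on Huh-7 cells for about a day; IC50 from the dose curve.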
In experiment [2] the target is SARS-CoV-2 Omicron BA.2 spike pseudovirus. How it is done:
as §1

Experiment [3] addresses SARS-CoV-2 Omicron BA.2.75 spike pseudovirus. How it is done:
as §1

The target of experiment [4] is SARS-CoV-2 Omicron BA.2.75.2 spike pseudovirus. As to the method:
as §1

Experiment [5] concerns the target SARS-CoV-2 Omicron BA.5 spike pseudovirus. How it is done:
as §1

In experiment [6] the target is SARS-CoV-2 Omicron BM.1.1.1 spike pseudovirus. How it is done: as §1
Experiment [7] deals with SARS-CoV-2 Omicron BQ.1.1 spike pseudovirus. As to the method:
as §1

The target of experiment [8] is SARS-CoV-2 Omicron BR.2 spike pseudovirus. How it is done:
as §1

The target of experiment [9] is SARS-CoV-2 Omicron CA.1 spike pseudovirus. As to the method:
as §1

Experiment [10] deals with SARS-CoV-2 Omicron XBB spike pseudovirus. How it is done: as §1
The target in experiment [11] is SARS-CoV-2 early D614G spike pseudovirus. How it is done: as §1

Human monoclonal antibodies against the spike receptor-binding domain (heavy:light variable regions). IC50 against pseudoviruses bearing the spike of naturally observed variants; lower = stronger; >10 µg/ml means not reached at the top dose. No active / inactive call. The stated detection limit is 0.0005 µg/ml; values near or below 0.001 µg/ml lie at the floor of the assay.

B1: BD56-343 (protein)
chain 1: QVELVQSGTEVKMPGSSVRLSCKTSRGTTYAISWVRQAPGQGLEWMGRIIPLLGRKNYAQKFQDRVTITADKSAGAAFMDLGSLTSDDTGMYYCVRNQDISGGISPIPIIWGQGTKVIVSS
chain 2: SFVLTQPPSVSVSPGQTARITCSGDALTKKYVYWHQQKPGQAPVLVISEDNMRPSGIPERFSGSTSGTIVTLTIGGVQSEDEADYYCQSPDTDGTWVFGGGTRLTVL
For the molecule B1, the “pseudovirus neutralization IC50” value in experiment [1] was 0.00876 µg/mL; in experiment [2], 0.0051 µg/mL; in experiment [3], 0.0389 µg/mL; in experiment [4] it was > 10 µg/mL; in experiment [5], > 10 µg/mL; in experiment [6], > 10 µg/mL. Besides, the “pseudovirus neutralization IC50” value in experiment [7], in experiment [8], in [9], in experiment [10] and in [11] was > 10 µg/mL throughout.

B2: BD57-0398 (protein)
chain 1: QITLKESGPTLVKPTQTLTLTCTFSGFSLSTSGVGVGWIRQPPGKALEWLALIYWDDDKRYSPSLKNRLTITKDTSRNQVVLTMTNMDPVDTGTYYCAHSHDSSNWYDSGWFDPWGQGTLVTVSS
chain 2: DIVMTQSPATLSVSPGERATLSCRASQSVSSNLAWYQQKPGQAPRLLIYGASTRATGIPARFSASGSGTEFTLTISSLQSEDFGVYYCQQYNHWPLYTFGQGTKLEIK
Take B2: the “pseudovirus neutralization IC50” value in [1], in experiment [2], in [3], in experiment [4], in experiment [5] and in experiment [6] was > 10 µg/mL throughout. Moreover, the “pseudovirus neutralization IC50” value in experiment [7], in experiment [8], in experiment [9], in experiment [10] and in experiment [11] was > 10 µg/mL throughout.

B3: BD56-308 (protein)
chain 1: QVHLVQSGAEVKKSGSSVKVSCKASGGDFGTSAISWVRQAPGQGLEWMGGILPIFHSRNSAQKFQGRLTISADASTSTAYMELTGLTSEDTALYYCASGGVGPTVSSFFDSWGQGTLVTVSS
chain 2: EIVLTQSPGTLSLSPGERATLSCRASQSVSRSDLAWYQLKPGHAPRLLIYGASDRATGIPDRFSGSGSGTDFTLTISRLEPEDFAVYYCQQSTNSPITFGQGTRLDIK
Turning to B3, the “pseudovirus neutralization IC50” value was 0.316 µg/mL in [1]; 4.03 µg/mL in experiment [2]; 2.89 µg/mL in experiment [3]; > 10 µg/mL in [4]; > 10 µg/mL in experiment [5]; > 10 µg/mL in experiment [6]. In addition, the “pseudovirus neutralization IC50” value in experiment [7], in experiment [8], in experiment [9], in experiment [10] and in experiment [11] was > 10 µg/mL each time.

B4: BD56-335 (protein)
chain 1: EVQLVQSGAEVKKPGESLKISCKGYGFRFPNYWIGWVRQMPGKGLEWMGIIYADDSDTRYSPSFQGQVTISADKSISTAYVQWSSLKTSDSAMYYCAVAGGYGDYALWYWGQGTLVTVSS
chain 2: EIVMTQSPATLSVSPGERATLSCRASQSVSSNLAWYQQKPGQAPRLLIYGASTRATGFPARFSGSGSGTEFTLTISSLQSEDFAVYYCQQYNDWPPAFGQGTKVEIK
Turning to B4, the “pseudovirus neutralization IC50” value was 0.0008 µg/mL in experiment [1]; 0.00137 µg/mL in [2]; 0.00195 µg/mL in experiment [3]; 0.00476 µg/mL in experiment [4]; 0.000983 µg/mL in experiment [5]; 0.00419 µg/mL in [6]. Moreover, the “pseudovirus neutralization IC50” value in experiment [7] was 0.00582 µg/mL; in experiment [8] it was 0.00731 µg/mL; in experiment [9], 0.00519 µg/mL; in [10], > 10 µg/mL; in [11], > 10 µg/mL.

B5: BD57-0308 (protein)
chain 1: QVQLVESGGGVVQPGRSLRLSCAASGFSFSNYAMHWVRQAPGKGLEWVAVISYDGGNNKYFVDSVKGRFTISRDNSNNTMYLQMNSLRGEDTAVYYCAKDRATGGFCGSNTCYGFYDAMDVWGQGTTVTVSS
chain 2: DIVMTQSPDSLAVSLGERATINCKSSQSVFYSSRDKNYVAWYQQQPGQPPKLLIYWASAREAGVPDRFSGSGSGTDFTLTISSLQATDAAVYYCQQYYTSPHTFGRGTKVEIK
Turning to B5, the “pseudovirus neutralization IC50” value in [1], in experiment [2], in [3], in experiment [4], in experiment [5] and in experiment [6] was > 10 µg/mL throughout. Further, the “pseudovirus neutralization IC50” value in [7], in [8], in [9], in experiment [10] and in experiment [11] was > 10 µg/mL throughout.

B6: BD56-345 (protein)
chain 1: QVTLRESGPALVKPTQTLTLTCTFSGFSLNTSGMCVSWIRQPPGKALEWLALIDWDDDKYYSTSLKTRLTISKATSKNQVVLTMTNMDPVDTATYYCARIRGHYYYYGMDVWGQGTTVTVSS
chain 2: SYELTQPPSVSVSPGQTARITCSGDALPNQYAYWYQQRPGQAPVLVIYKDTERPSGIPERFSGSSSGTTVTLTISGVQAEDEADYYCQSADNNGSPVVFGGGTKLTVL
In the case of B6, the “pseudovirus neutralization IC50” value was found to be 0.0234 µg/mL in [1]; 0.0175 µg/mL in [2]; 0.453 µg/mL in experiment [3]; 0.242 µg/mL in [4]; 0.0208 µg/mL in [5]; 0.182 µg/mL in experiment [6]. Besides, the “pseudovirus neutralization IC50” value in [7] is 0.0592 µg/mL; in [8] it was 0.13 µg/mL; in experiment [9], 0.269 µg/mL; in experiment [10], 5.75 µg/mL; in experiment [11], > 10 µg/mL.

B7: BD56-734 (protein)
chain 1: QVQLQESGPGLVKPSETLSLTCTVSGDSISGYYWSWVRQPPGKGLAWIGYIYNGGSTDYNPSLKSRITMSLDTSKNQFSLKLNSVTAADTAVYFCARGSVDGDAFDIWGQGTMVTVSS
chain 2: DIVMTQSPDSLAVSLGERATINCKSSQSVLYSSNNKNYLAWYQQKPGQPPKLLIYWASTRESGVPDRFSGSGSGTDFTLTISSLQAEDVAVYYCQQYYTTPLTFGPGTKVDIK
In the case of B7, the “pseudovirus neutralization IC50” value was 0.00116 µg/mL in experiment [1]; > 10 µg/mL in experiment [2]; > 10 µg/mL in experiment [3]; > 10 µg/mL in experiment [4]; > 10 µg/mL in experiment [5]; > 10 µg/mL in [6]. Moreover, the “pseudovirus neutralization IC50” value in experiment [7], in experiment [8], in experiment [9], in experiment [10] and in [11] was > 10 µg/mL in each case.

B8: BD56-749 (protein)
chain 1: QVQLQESGPGLVKPSETLSLTCTVSGDSISGYYWSWIRQPPGKGLEWIGFIYYSGSTNYNPSLKSRVTILVDTSNNQFSLKLSSVTAADTAVYYCARGQLRGDAFDIWGQGTMVTVSS
chain 2: DIVMTQSPDSLAVSLGERATINCKSSQSVLYSSNNKNYLAWYQQKPGQPPKLLIYWASTRESGVPDRFSGSGSGTDFTLTISSLQAEDVALYYCQQYYSIPLTFGGGTKVEIK
B8: the “pseudovirus neutralization IC50” value in experiment [1] is 0.00301 µg/mL; in experiment [2], > 10 µg/mL; in [3] it was > 10 µg/mL; in [4], > 10 µg/mL; in experiment [5] it was > 10 µg/mL; in experiment [6] it was > 10 µg/mL. For the same molecule, the “pseudovirus neutralization IC50” value in [7], in experiment [8], in experiment [9], in experiment [10] and in experiment [11] was > 10 µg/mL each time.

B9: BD56-313 (protein)
chain 1: EVSLVESGGGLIQPGGSLRLSCAASGLTVSRNYMSWVRQAPGKGLEWVSVIYSGGSTFYADSVKGRFTISRDNSKNTLYLQMNSLRAEDTAVYYCAREGAVAGNVGLAFDIWGLGTMVTVSS
chain 2: DIQMTQSPSSLSASVGDRVTITCQASQDIINYLNWYQQKPGKAPKLLIYDASNLETGVPSRFSGSGSGTDFTFTISTLQPEDIATYYCQQYDNLPRAFGPGTKVEIK
For B9, the “pseudovirus neutralization IC50” value in [1] was 0.00557 µg/mL; in [2], 0.00768 µg/mL; in [3], 0.647 µg/mL; in experiment [4] it was 1.81 µg/mL; in experiment [5], 0.0149 µg/mL; in experiment [6] it was > 10 µg/mL. Further, the “pseudovirus neutralization IC50” value was 2.89 µg/mL in experiment [7]; > 10 µg/mL in [8]; > 10 µg/mL in [9]; > 10 µg/mL in experiment [10]; > 10 µg/mL in [11].

B10: BD56-323 (protein)
chain 1: EVRLVQSGAEVKKPGESLKISCKGSGYSFTSCWIGWVRQMPGKGLEWMGIIYPGDSDTRYSPSFQGQVTISADKSISTAYLQWSSLKASDTAMYYCARPMGFGELGPAFDIWGQGTMVTVSS
chain 2: QSVLTQPPSVSAAPGQKVTISCSGSSSNIGNNYVSWYQQLPGTAPKLLIYDSNERPSGIPDRFSGSKSGTSATLGITGLQTGDEADYYCGTWDSSLSALVFGGGTKLTVL
Take B10: the “pseudovirus neutralization IC50” value in experiment [1] was 1.1 µg/mL; in experiment [2], > 10 µg/mL; in [3] it was > 10 µg/mL; in [4], > 10 µg/mL; in experiment [5] it was > 10 µg/mL; in experiment [6] it was > 10 µg/mL. For the same molecule, the “pseudovirus neutralization IC50” value in experiment [7], in [8], in experiment [9], in [10] and in experiment [11] was > 10 µg/mL each time.
